Compound potency records, mixed from different reports. Data source: NIAID ChemDB in PubChem.

Shared fields: growth or infection tests; agent: HIV-1; method: RT activity; read-out: EC50

Rows are shuffled and stem from different studies. Blank or dashed fields: not listed here. ECn: concentration that inhibits the pathogen or its effect by n%.

smiles,setting,strain or isolate,mutations,cells,result
Cc1cn([C@H]2C[C@H](N=[N+]=[N-])[C@@H](CO)O2)c(=O)[nH]c1=O,-,BaL,-,Macrophage + Monocytes/macrophages,0.015 µM
Cc1cn([C@H]2C=C[C@@H](CO)O2)c(=O)[nH]c1=O,-,LAI,-,MT-2,0.4 µM
CN(C)CCC=C1c2ccccc2CCc2ccccc21,-,IIIB,-,MOLT-3,>10 µg/mL
O=c1[nH]c(=O)n([C@H]2C=C[C@@H](CO)O2)cc1F,-,LAI,-,PBMC,7.9 µM
Nc1nc(=O)n([C@@H]2CO[C@H](CO)S2)cc1F,-,HXB2D(RT-M184I),RT-M184I,CBMC,4.5 µM
O=C(CO)N[C@@H]([C@@H](O)[C@H](O)[C@H](O)CO)[C@@H](O)C(=O)C(=O)O,-,ROJO,-,PBMC,58 µM
O=c1[nH]cnc2c1ncn2[C@H]1CC[C@@H](CO)O1,-,IIIB,-,MT-4,8.4 µM
CC(C)(C)C(=O)SCCOP(=O)(OCCSC(=O)C(C)(C)C)OC[C@H]1CC[C@@H](n2cnc3c(N)ncnc32)O1,-,LAV,-,PBMC,0.002 µM
Cc1cn([C@H]2C[C@H](N=[N+]=[N-])[C@@H](CO)O2)c(=O)[nH]c1=O,-,SCV 4005,-,MT-4,0.0084 µM
Nc1nc(N)c2ncn(CCOCP(=O)(O)O)c2n1,-,LAV,-,C3,0.2 µM
Nc1nc2c(ncn2[C@H]2C[C@H](O)[C@@H](CO)O2)c(=O)o1,chronic infection,IIIB,-,U-937/HIV-1(IIIB) + U-937,>100 µg/mL
Nc1ccn([C@H]2CC[C@@H](CO)O2)c(=O)n1,-,IIIB,-,MT-4,0.53 µM
C=CCc1ccc(O)c(-c2cc(CC=C)ccc2O)c1,-,-,-,PBMC,3.3 µM
Cc1cn([C@H]2C[C@H](N=[N+]=[N-])[C@@H](COP(=O)(OCCCCSC(=O)C(C)(C)C)OCCCCSC(=O)C(C)(C)C)O2)c(=O)[nH]c1=O,-,LAI,-,CEM + CEM TK-,>10 µM
Nc1ccn([C@@H]2C[C@@H](F)[C@H](CO)O2)c(=O)n1,-,LAV,-,PBMC,82 µM
Cc1cn([C@H]2C[C@H](N=[N+]=[N-])[C@@H](CO)O2)c(=O)[nH]c1=O,-,LAI,-,CEM + CEM-SS,0.0012 µM
Nc1nc(=O)n([C@H]2CO[C@@H](CO)S2)cc1F,-,HXB2D,-,MT-4,4.8 µM
CCCOn1c(CC)nc2c(C)cccc21,-,IIIB,-,C8166,6 µM
Nc1nc(=O)n([C@@H]2C=C[C@H](CO)O2)cc1F,-,LAV,-,PBMC,0.034 µM
Nc1nc2c(ncn2[C@H]2CC[C@@H](CO)O2)c(=O)o1,-,IIIB,-,H9,>500 µg/mL
CC(C)=CCOn1c(C=C(C)C)nc2c(C)cccc21,-,IIIB,-,C8166,10 µM
O=c1[nH]cnc2c1ncn2[C@H]1CC[C@@H](CO)O1,-,HXB2D,-,CBMC,1.9 µM
Fc1cccc(F)c1[C@@H]1SCc2nc3ccccc3n21,-,IIIB,-,PBMC,2.32 µM
CCCCOn1c(CCC)nc2c(C)cccc21,-,IIIB,-,C8166,0.5 µM
Nc1ncnc2c1ncn2CCOCP(=O)(O)O,-,LAV,-,C3,1.9 µM
CC(=O)OC[C@H]1O[C@@H](SCCOP(=O)(OCCS[C@@H]2O[C@H](CO)[C@@H](O)[C@H](O)[C@H]2O)OC[C@H]2O[C@@H](n3cc(C)c(=O)[nH]c3=O)C[C@@H]2N=[N+]=[N-])[C@H](OC(C)=O)[C@@H](OC(C)=O)[C@@H]1OC(C)=O,-,LAI,-,MM + M/M,0.04 µM
Cc1ccnc2c1NC(=O)c1cccnc1N2C1CC1,pseudotyped,-,Y181C,-,>10 µM
CCCCCCCOn1c(CCCCCC)nc2c(C)cccc21,-,IIIB,-,C8166,40 µM
Nc1nc2c(ncn2[C@H]2CC[C@@H](CO)C2)c(=O)o1,-,IIIB,-,CEM,170 µg/mL
CC(=O)OC[C@H]1O[C@@H](SCCOP(=O)(OCS[C@@H]2O[C@H](COC(C)=O)[C@@H](OC(C)=O)[C@H](OC(C)=O)[C@H]2OC(C)=O)OC[C@H]2O[C@@H](n3cc(C)c(=O)[nH]c3=O)C[C@@H]2N=[N+]=[N-])[C@H](OC(C)=O)[C@@H](OC(C)=O)[C@@H]1OC(C)=O,-,BaL,-,PBMC,0.06 µM
Nc1nc(=O)n([C@@H]2CC[C@H](CO)O2)cc1F,-,LAV,-,PBMC,0.021 µM
CC(C)(C)C(=O)SCCCCOP(=O)(OCCCCSC(=O)C(C)(C)C)OC[C@@H]1CC[C@H](n2cnc3c(N)ncnc32)O1,-,LAI,-,CEM + CEM-SS,>10 µM
Nc1nc(=O)n([C@@H]2CS[C@H](CO)O2)cc1F,-,LAV,-,PBMC,0.008 µM
CC(C)=CCN1Cc2cc(Cl)cc3[nH]c(=S)n(c23)C[C@@H]1C,-,IIIB,-,C8166,0.002 µM
Nc1ccn([C@@H]2C=C[C@H](CO)O2)c(=O)n1,-,LAV,-,PBMC,1 µM
OCC(S)CS,-,IIIB-C-3,-,MOLT-4,<5 µg/mL
CNCCC=C1c2ccccc2CCc2ccccc21,-,IIIB,-,MOLT-3,>1 µg/mL
Cc1cn([C@H]2C[C@H](N=[N+]=[N-])[C@@H](COP(=O)(OCCS[C@@H]3O[C@H](CO)[C@@H](O)[C@H](O)[C@H]3O)OCCS[C@@H]3O[C@H](CO)[C@@H](O)[C@H](O)[C@H]3O)O2)c(=O)[nH]c1=O,-,LAI,-,MM + M/M,0.4 µM

5 of the rows above, restated:

OCC(S)CS ; strain or isolate: IIIB-C-3 ; cells: MOLT-4 ; result: <5 µg/mL
O=c1[nH]cnc2c1ncn2[C@H]1CC[C@@H](CO)O1 ; strain or isolate: IIIB ; cells: MT-4 ; result: 8.4 µM
Nc1nc(=O)n([C@@H]2CC[C@H](CO)O2)cc1F ; strain or isolate: LAV ; cells: PBMC ; result: 0.021 µM
CC(C)=CCOn1c(C=C(C)C)nc2c(C)cccc21 ; strain or isolate: IIIB ; cells: C8166 ; result: 10 µM
Nc1ccn([C@@H]2C=C[C@H](CO)O2)c(=O)n1 ; strain or isolate: LAV ; cells: PBMC ; result: 1 µM